Consider nine compounds from article PMC11879855, “Structural insights into tecovirimat antiviral activity and poxvirus resistance” (2025).

Like-named read-outs stand apart in the source and are kept apart here.

One experiment has as its system VACV. To be noted: cited from earlier work.
The subject of experiment [1] is MPXV clade IIb strain MPXV/2022/FR/CMIP. Briefly: MPXV plaque inhibition (neutralization) assay in Vero cells. To be noted: read-out: IC50 (plaque inhibition of MPXV); Vero cells infected with MPXV clade IIb.
For experiment [2] the test system is unchanged.
Where [3] appears, read: read-out: EC50(VACV), inhibits 50% of virus-induced cytopathic effects.

On to `O=C(NN1C(=O)[C@@H]2[C@@H]3C=C[C@@H]([C@H]4C[C@@H]34)[C@@H]2C1=O)c1ccccc1Br`, for which the EC50 with VACV (setting [3]) is 2300 nM.
Take `Cc1cc(C(=O)NN2C(=O)[C@@H]3[C@@H]4C=C[C@@H]([C@H]5C[C@@H]45)[C@@H]3C2=O)n[nH]1`: the EC50 in the experiment on VACV (setting [3]) was 7100 nM.
“N1-isonicotinoly-N2-3-methyl-4-chlorobenzoylhydrazine”: the IC50 in experiment [1] worked out at 74 nM.
On to `O=C(NN1C(=O)[C@@H]2[C@@H]3C=C[C@@H]([C@H]4C[C@@H]34)[C@@H]2C1=O)c1ccncc1`, for which the EC50 with VACV (setting [3]) was 500 nM.
On to `O=C(NN1C(=O)[C@@H]2[C@@H]3C=C[C@@H]([C@H]4C[C@@H]34)[C@@H]2C1=O)c1ccc(C(F)(F)F)cc1`, for which, in experiment [2], the IC50 was determined as 17 nM. Also, in the experiment on VACV, the EC50 was 40 nM.
Turning to `Cn1cccc1C(=O)NN1C(=O)[C@@H]2[C@@H]3C=C[C@@H]([C@H]4C[C@@H]34)[C@@H]2C1=O`, the half-maximal effective concentration (EC50) with VACV (setting [3]) is 15800 nM.
On to `O=C(NN1C(=O)[C@@H]2[C@@H]3C=C[C@@H]([C@H]4C[C@@H]34)[C@@H]2C1=O)c1ccccc1Cl`, for which, in the experiment on VACV (setting [3]), the EC50 was 3000 nM.
Regarding `O=C(NN1C(=O)[C@@H]2[C@@H]3C=C[C@@H]([C@H]4C[C@@H]34)[C@@H]2C1=O)c1ccc([N+](=O)[O-])cc1`, the EC50 in the experiment on VACV (setting [3]) is 20 nM.
`Nc1ccc(C(=O)NN2C(=O)[C@@H]3[C@@H]4C=C[C@@H]([C@H]5C[C@@H]45)[C@@H]3C2=O)cc1`: the EC50 in the experiment with VACV (setting [3]) is 7700 nM.

The EC50 is the concentration needed to bring the measured effect to its halfway point. As a reminder, the IC50 is the concentration that inhibits the measured activity by half.
